Results of unrelated studies side by side (data: NIAID ChemDB).

All rows: toxicity to cultured cells; cell line: HepG2.117; read by: luminescence; measure: CC50

Lines come from different laboratories, so protocols vary.

SMILES	value
Cc1cc(C)n(-c2nc3c(c(=O)n2-c2ccc(N4CC(O)C4)nc2)C[C@@H](C)N(C(=O)c2ccc(Br)c(C(F)(F)F)c2)C3)n1	>0.5 µM
C=C[C@H](C)Nc1nc2c(c(=O)n1-c1ccc(C(=O)N(C)C(=O)OCOC(=O)[C@@H](N)C(C)C)cc1)C[C@@H](C)N(C(=O)c1ccc(Br)c(C(F)(F)F)c1)C2	>50 µM
O=C(c1ccc(Cl)c(Cl)c1)N1CCc2nn3c(c2C1)-c1noc(-c2ccccc2)c1CCC3	>50 µM
Cc1cc(C)n(-c2nc3c(c(=O)n2-c2ccc(-c4cnn(C)c4)cc2)C[C@@H](C)N(C(=O)c2ccc(Br)c(C(F)(F)F)c2)C3)n1	>0.5 µM
CC(=O)Nc1ccc([C@H](C)N2CCn3nc4c(c3C2=O)CN(C(=O)c2ccc(Cl)c(Cl)c2)[C@H](C)C4)cc1	0.3 µM
Cc1cc(C)n(-c2nc3c(c(=O)n2-c2cc(Cl)c4c(c2)ncn4C)C[C@@H](C)N(C(=O)c2ccc(Br)c(C(F)(F)F)c2)C3)n1	>0.5 µM
CC(=O)Nc1ccc([C@@H](C)N2CCn3nc4c(c3C2=O)CN(C(=O)c2ccc(Br)c(C#N)c2)[C@H](C)C4)cc1	>50 µM
C=C[C@H](C)Nc1nc2c(c(=O)n1-c1ccc(C(=O)N(C)CO)cc1)C[C@@H](C)N(C(=O)c1ccc(Br)c(C(F)(F)F)c1)C2	>50 µM
C[C@@H]1Cc2nn3c(c2CN1C(=O)c1ccc(Cl)c(C#N)c1)C(=O)N([C@H](C)c1cccc(OC(F)F)c1)CC3	>50 µM
Cc1cc(C)n(-c2nc3c(c(=O)n2-c2ccc(OC[C@H](C)O)cc2)C[C@@H](C)N(C(=O)c2ccc(Br)c(C(F)(F)F)c2)C3)n1	>0.5 µM
C[C@@H]1Cc2nn3c(c2CN1C(=O)c1ccc(Cl)c(C#N)c1)C(=O)N([C@H](C)c1cccc(NS(C)(=O)=O)c1)CC3	>50 µM
Cc1cc(C)n(-c2nc3c(c(=O)n2-c2ccc(N4CCOCC4)nc2)C[C@@H](C)N(C(=O)c2ccc(Br)c(C(F)(F)F)c2)C3)n1	>0.5 µM
C=C[C@H](C)Nc1nc2c(c(=O)n1-c1ccc(C(=O)N(C)C(=O)OCOC(=O)[C@H](N)C(C)C)cc1)C[C@@H](C)N(C(=O)c1ccc(Br)c(C(F)(F)F)c1)C2	48.8 µM
Cc1c(C(=O)N2Cc3c(nn4c3C(=O)N([C@H](C)c3ccc(OC(F)F)cc3)CC4)C[C@H]2C)ccc(Cl)c1C#N	>50 µM
CC(=O)Nc1ccc([C@H](C)N2CCn3nc4c(c3C2=O)CN(C(=O)c2ccc(Br)c(C#N)c2)[C@H](C)C4)cc1	>50 µM
C=C[C@H](C)Nc1nc2c(c(=O)n1-c1ccc(C(=O)N(C)C(=O)OCOP(=O)(O)O)cc1)C[C@@H](C)N(C(=O)c1ccc(Br)c(C(F)(F)F)c1)C2	>50 µM
C[C@@H]1Cc2nn3c(c2CN1C(=O)c1ccc(Cl)c(C#N)c1)C(=O)N([C@@H](C)c1ccc2c(c1)OC(F)(F)O2)CC3	>50 µM
C[C@@H]1Cc2nn3c(c2CN1C(=O)c1ccc(Cl)c(C#N)c1)C(=O)N([C@@H](C)c1ccc(S(F)(F)(F)(F)F)cc1)CC3	40.3 µM
C[C@@H]1Cc2nn3c(c2CN1C(=O)c1ccc(Cl)c(C#N)c1)C(=O)N([C@H](C)c1cccc(C(F)(F)F)c1)CC3	>50 µM
CC(=O)Nc1ccc([C@@H](C)N2CCn3nc4c(c3C2=O)CN(C(=O)c2ccc(Cl)c(C(F)(F)F)c2)[C@H](C)C4)cc1	19.7 µM

CCn: concentration that lowers growth or viability of the cells by n%.